Results deposited as PubChem BioAssay AID1224833 (University of Georgia, 2016).

Assay: 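Host factors restraining rotavirus as candidate antiviral genes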 (primary screen)
Cell system: monkey MA104 kidney cells
Reagents: siRNA pool against human genes, 50 nM
Time to read-out: 48 h knock-down before infection; read 24 h after infection
Conditions: infection with rotavirus strain RV3 two days after transfection; infectious dose for this stage not given
Measurement: 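Rotavirus antigen per well by fluorescent immunoassay, normalised to non-targeting control wells on each plate and given as a standard z-score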
Direction: z-score vs non-targeting control: higher = more rotavirus replication than with non-targeting control
Hit rule: In these data the active calls have z-score vs non-targeting control at about -1 or lower, or at about 1 or higher
Meaning of the calls: active = z-score beyond 1 either way; inactive = z-score within 1 of zero
This is a random part of about 12,000 deposited reagents. Over the whole deposit, about 5,600 (46%) were called active. 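Active calls cover z-scores past 1 in both directions, so they include lowered as well as raised rotavirus replication.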

UFM1 gave z-score vs non-targeting control 0.616; inactive.
Knock-down of TSPAN13 came out at: z-score vs non-targeting control -0.171; inactive.
Depletion of LDHAL6A gave: z-score vs non-targeting control 2.47; active.
BTG1 gave z-score vs non-targeting control 0.643; inactive.
TAFA5 scored z-score vs non-targeting control -0.801; inactive.
Depletion of WDTC1 resulted in: z-score vs non-targeting control -0.701; inactive.
After knock-down of ANKRD6, the record shows z-score vs non-targeting control -0.257; inactive.
For H4C16 the deposit lists z-score vs non-targeting control -0.438; inactive.
With knock-down of GPR142, the record shows z-score vs non-targeting control -0.64; inactive.
Depletion of SSNA1 resulted in: z-score vs non-targeting control -3.2; active.
GPX5 gave z-score vs non-targeting control -1.94; active.
For IFNA1, the entry reads z-score vs non-targeting control -1.09; active.
NPR1 showed z-score vs non-targeting control -0.783; inactive.
After knock-down of FAM124B, the screen gave z-score vs non-targeting control 1.05; active.
Knock-down of GPR15 gave: z-score vs non-targeting control 1.98; active.
After knock-down of TNFSF10 the results were z-score vs non-targeting control 0.178; inactive.
Knock-down of SLC40A1 gave: z-score vs non-targeting control -0.776; inactive.
With knock-down of SASH3 the results were z-score vs non-targeting control -0.293; inactive.
TNNT1 showed z-score vs non-targeting control 0.217; inactive.
After knock-down of STON2, the record shows z-score vs non-targeting control 3.16; active.
Silencing of WIPF1 came out at: z-score vs non-targeting control -1.27; active.
For C22orf39 the deposit lists z-score vs non-targeting control -2.08; active.
Knock-down of ITIH2 gave: z-score vs non-targeting control -0.127; inactive.
Against COQ6, the entry reads z-score vs non-targeting control -0.827; inactive.
After knock-down of DRC3, the screen gave z-score vs non-targeting control -0.644; inactive.
Knock-down of OTOP1 gave: z-score vs non-targeting control 0.725; inactive.
For CEACAM5, the values are z-score vs non-targeting control 0.193; inactive.
Against ZSWIM9, the values are z-score vs non-targeting control 1.11; active.
TUBG2 showed z-score vs non-targeting control 1.38; active.
Silencing of MDFI resulted in: z-score vs non-targeting control -1.74; active.
NINJ1 gave z-score vs non-targeting control 0.133; inactive.
With knock-down of SAP130 the results were z-score vs non-targeting control -1.04; active.

Single entries from above.
Under “z-score vs non-targeting control”, LDHAL6A has 2.47
CEACAM5, Call: inactive
